The record followed here is PubChem BioAssay AID651610 (Broad Institute, 2012).

The entries are a selection whose mix differs from that of the whole data set. The source made the active and inactive calls.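 How the source made its calls: active means mean replicate inhibition score of at least 50 and every replicate individually at or above 50; inconclusive means only one of the two criteria met; inactive means mean below 50 and not all replicates reaching 50.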

This experiment can be described thus: inhibitors of HIV-1 Env-driven cell-cell fusion, primary screen, HeLa-JRFL effector, CEM21 target cells, luciferase (AID 651610).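 Further: 0% = plate neutral controls and 100% = maraviroc near 300 nM.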 As to conditions: at 12.3 µM, stronger effect = higher value.
`CCc1ccc(OP(C)(=O)Nc2cccnc2)cc1` (configuration not stated): the inhibition is inactive: -0.375%.
In the case of `O=[N+]([O-])c1cc([N+](=O)[O-])c(CCNc2ccccc2)c([N+](=O)[O-])c1` it was inactive: 6.91%.
In the case of `CCc1nc2c(n1)c1c(non1O)c1c2no[n+]1[O-]`, the inhibition is inactive: -54.2%.
In the case of `Cc1ccc(NP(=O)(Oc2ccccc2)Oc2ccccc2)nc1` it was inactive: 5.74%; in that of `O=C(OCCCN1CCCC1)C(O)(c1ccccc1)C1CCCCC1` (configuration not stated), inactive: 19.2%.
`O=[N+]([O-])c1cccc2n[nH]nc12`: the inhibition is inactive: -47.3%.
In the case of `COc1ccccc1OP(C)(=O)Nc1c(C)n(C)n(-c2ccccc2)c1=O` (configuration not stated) it was inactive: 1.04%; in that of `COc1ccc(C2=NCC(CBr)S2)cc1` (configuration not stated), inactive: 6.79%.
The value for `COc1ccc(OP(C)(=O)Nc2ccc(Br)cc2)cc1` (configuration not stated) was inactive: -50.9%.
In the case of `CCN(CC)CC(O)COC(=O)C(O)(c1ccccc1)C1CCCCC1` (configuration not stated) it was inactive: -117%; in that of `c1cc(-c2nn[nH]n2)ccc1-c1nn[nH]n1`, inactive: 1.45%.
With `CC(C)=N/N=C(\N)N[N+](=O)[O-]`, the inhibition was inactive: 10.5%.
The value for `CN(C)C(=O)c1c([N+](=O)[O-])cc([N+](=O)[O-])cc1[N+](=O)[O-]` was inactive: 30.3%.
In the case of `CCN(/C(=N/P(=O)(N1CCOCC1)N1CCOCC1)N1CCOCC1)c1ccc(OC)cc1` it was inactive: -6.45%; in that of `C[N+]1=C2C=CC=CC=C2SC12C([N+](=O)[O-])=CC([N+](=O)[O-])=C[C-]2[N+](=O)[O-]` (configuration not stated), inactive: -55%.
The value for `COc1ccccc1OP(C)(=O)Nc1ccccc1Br` (configuration not stated) was inactive: 17.2%; that for `Nc1ccc([As](=O)(O)c2ccc(N)cc2)cc1` was inactive: 20.2%; that for `CC(C)(C)c1ccc(OP(C)(=O)O)cc1` was inactive: -1.86%.
Regarding `O=C(Nc1cc([As](=O)(O)O)ccc1O)c1ccccc1`, the inhibition is inactive: -6.28%.
In the case of `Nc1ccc2c(ccc3cccnc32)n1.O=[N+]([O-])c1cc([N+](=O)[O-])c(O)c([N+](=O)[O-])c1` it was inactive: -228%.
Regarding `O=C(O)CNc1ccc([As](=O)(O)O)cc1`, the inhibition was inactive: -10.9%.
As for `COC(=O)C1(C)COP(=O)(Nc2ccccc2)OC1` (configuration not stated), the inhibition is inactive: -3.31%.
The value for `O=[N+]([O-])c1cccc(NC2=NCC(CBr)S2)c1` (configuration not stated) was inactive: -1.77%.
In the case of `O=[N+]([O-])c1ncn(CCn2ncnc2[N+](=O)[O-])n1` it was inactive: -0.806%.
Take `CC(C)(C)C(=O)NC(Sc1ccncn1)C(Cl)(Cl)Cl` (configuration not stated): the inhibition was inactive: 2.23%.
`COc1ccc(OP(C)(=O)Nc2ccccc2Br)cc1` (configuration not stated): the inhibition was inactive: -23%.
As to `CN(C(=O)Cc1ccc(Cl)c(Cl)c1)[C@H]1CCCC[C@@H]1N1CCCC1`, the inhibition was inactive: -9.81%.
